Values from PubChem BioAssay AID1259414 (Drosophila RNAi Screening Center, 2018)
Purpose: 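Genome-wide screen for host control of endosymbiont load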 (primary screen). Cell system: Drosophila JW18 cells infected with Wolbachia. Knock-down reagent: long dsRNA against Drosophila genes, 0.25 µg dsRNA per well of a 384-well plate. Timing: 5 days. Conditions: cells persistently infected with Wolbachia before knock-down; no added drug. Detection: 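Imaged fluorescence in situ signal for Wolbachia 23S rRNA per DAPI-counted host cell, given as a robust z-score within each plate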. Scale: Wolbachia per cell robust z: higher = more Wolbachia per host cell than the plate typical. Active means: 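Active if absolute robust z reaches 1.5 in two or more of three replicates, leaving out multi- or no-target dsRNAs, genes unexpressed in JW18 and A1 wells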.
The deposit covers about 24,000 reagents; below is a random part of those that have a named target and a result. Of all reagents, about 1,210 (5%) got an active call. 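Inactive calls also include excluded dsRNAs with several or no targets, genes unexpressed in JW18, and well A1, regardless of score.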 Names joined by + are all predicted targets of the reagent.

gene knocked down	dsRNA	Wolbachia per cell robust z, rep 1	Wolbachia per cell robust z, rep 2	Wolbachia per cell robust z, rep 3	activity call
Dscam1 (GeneID 35652)	DRSC07407	0.899	-0.0664	0.335	inactive
Dscam1 (GeneID 35652)	DRSC21562	0.204	-1.36	0.0545	inactive
Dscam1 (GeneID 35652)	DRSC22383	-1.22	0.333	0.674	inactive
Dscam1 (GeneID 35652)	DRSC29101	1.61	1.36	0.325	inactive
Flo1 (GeneID 36726)	DRSC07427	0.874	0.761	0.127	inactive
Flo1 (GeneID 36726)	DRSC28122	0.0631	-1.59	0.781	inactive
CG30391 (GeneID 37423)	DRSC21572	-0.198	-1.17	-0.0458	inactive
Cht12 (GeneID 246535)	DRSC03844	0.762	-2.75	0.149	inactive
MESK4 + CG31274	DRSC13202	-0.411	-0.904	-1.75	inactive
Tpc2 + CG9083	DRSC25523	0	1.95	2.25	inactive
CG4467 (GeneID 42747)	DRSC15585	-2.1	0.762	1.02	inactive
CG14331 (GeneID 42099)	DRSC14810	0.024	1.08	-0.101	inactive
CG32631 (GeneID 32311)	DRSC19768	-1.25	-2.7	0.662	inactive
CG32631 (GeneID 32311)	DRSC28596	1.09	-0.209	1.42	inactive
CG30287 (GeneID 246530)	DRSC03875	-1.06	-0.069	0.0302	inactive
CG8001 (GeneID 38224)	DRSC08611	-0.449	-2.52	-2.76	active
Ass (GeneID 40812)	DRSC28238	1.14	-0.128	0.439	inactive
CG12164 (GeneID 35651)	DRSC06115	-0.911	-1.98	-0.238	inactive
CG12164 (GeneID 35651)	DRSC21777	1.14	-1.33	0.704	inactive
CG12164 (GeneID 35651)	DRSC25698	-2.24	-1.23	-3.16	inactive
CG7991 (GeneID 38214)	DRSC08609	0.737	0.402	-2.17	inactive
CG7991 (GeneID 38214)	DRSC29595	-0.937	0.187	-4.75	inactive
CG31609 (GeneID 318845)	DRSC40622	0.311	-0.0112	-0.265	inactive
Ilp6 (GeneID 31220)	DRSC17906	-1.83	0.255	0.385	inactive
CG6426 (GeneID 36891)	DRSC06985	0.87	-0.512	-0.0497	inactive
CG17780 (GeneID 42914)	DRSC15265	-2.95	0.0125	0.692	inactive
Nepl19 (GeneID 43411)	DRSC14875	0.226	0.297	-1.32	inactive
CG13315 (GeneID 50300)	DRSC09986	-0.614	0.0216	-1.63	inactive
pasi1 (GeneID 42139)	DRSC16299	0.337	0.0995	0.568	inactive
pasi1 (GeneID 42139)	DRSC22385	-0.702	1.02	-0.425	inactive
pasi1 (GeneID 42139)	DRSC26688	1.22	0.543	1.03	inactive
Pos (GeneID 43762)	DRSC15415	-1.28	-1.74	-0.219	inactive
BomS1 (GeneID 37100)	DRSC22678	0.324	0.0189	-0.949	inactive
CG18636 (GeneID 2768923)	DRSC02685	-0.539	-0.522	-3.03	inactive
CG18636 (GeneID 2768923)	DRSC24922	-2.67	-0.501	0.754	inactive
Usp8 (GeneID 42509)	DRSC15876	-0.428	-0.251	-0.521	inactive
Paics (GeneID 32228)	DRSC20305	0.388	-3.28	0.843	inactive
dpr18 (GeneID 32572)	DRSC19606	0.71	0.455	0.32	inactive
CG34269 (GeneID 5740713)	DRSC38855	-1.74	-0.61	0.398	inactive
mtSSB (GeneID 41968)	DRSC17005	0.261	0.22	-1.33	inactive
CG17974 (GeneID 37441)	DRSC04299	-0.369	-0.584	-0.254	inactive
CG13310 (GeneID 39007)	DRSC09981	1.04	1.19	-0.494	inactive
CG13310 (GeneID 39007)	DRSC28258	0.0179	-0.211	-0.396	inactive
CG10914 (GeneID 37075)	DRSC06010	0.424	1	-1.69	inactive
Act79B (GeneID 40444)	DRSC11604	2.85	2.86	2.88	inactive
Act79B (GeneID 40444)	DRSC25023	1.27	-7.14	-0.367	inactive
CNT2 (GeneID 35914)	DRSC07073	-0.465	0.848	0.213	inactive
CG15027 (GeneID 32440)	DRSC19608	-4.4	-1.81	-0.0837	active
CG30416 (GeneID 246603)	DRSC04565	-0.00675	-4.24	-0.573	inactive
dos (GeneID 38321)	DRSC07992	3.76	2.36	4.45	inactive
dos (GeneID 38321)	DRSC08713	-0.319	-0.296	-0.312	inactive
dos (GeneID 38321)	DRSC23285	-0.215	0.662	0.61	inactive
scaf6 (GeneID 3346235)	DRSC10075	-0.0812	-0.381	0.931	inactive
scaf6 (GeneID 3346235)	DRSC10676	0.882	0.649	-0.267	inactive
CG14277 (GeneID 34129)	DRSC02380	0.286	0.881	-6.16	inactive
Acsf2 (GeneID 33766)	DRSC02172	1.02	-3.37	1.24	inactive
Acsf2 (GeneID 33766)	DRSC27832	-0.401	-1.53	-0.453	inactive
CG12909 (GeneID 36087)	DRSC06224	-0.196	-0.395	0.0844	inactive
CG12909 (GeneID 36087)	DRSC27706	-1.14	-0.415	-0.409	inactive
CG7296 (GeneID 34469)	DRSC03042	-1.19	-1.5	-0.718	inactive
CG7296 (GeneID 34469)	DRSC22343	-1.05	0.238	-1.42	inactive
CG7296 (GeneID 34469)	DRSC25754	-0.857	0.235	-0.654	inactive
CG11192 (GeneID 37309)	DRSC06057	-3.85	0.493	1.19	inactive
CG11192 (GeneID 37309)	DRSC25902	-1.25	-3.58	-4.31	inactive
CG16736 (GeneID 41101)	DRSC15145	-3.75	0.824	0.708	inactive
E(spl)m4-BFM (GeneID 43157)	DRSC16992	0.371	-1.18	1.33	inactive
E(spl)m4-BFM (GeneID 43157)	DRSC27642	-1.24	-1.79	-1.09	inactive
Cpr78E (GeneID 40408)	DRSC11807	0.239	0.253	-1.26	inactive

Hits, among the entries above:
gene knocked down	dsRNA	Wolbachia per cell robust z, rep 1	Wolbachia per cell robust z, rep 2	Wolbachia per cell robust z, rep 3	activity call
CG8001 (GeneID 38224)	DRSC08611	-0.449	-2.52	-2.76	active
CG15027 (GeneID 32440)	DRSC19608	-4.4	-1.81	-0.0837	active
